Results of unrelated studies side by side (data: NIAID ChemDB).

All rows: enzyme or target tests; organism: Hepatitis C virus

Two numbers with a dash give a range or band. Lines come from different laboratories, so protocols vary. An empty or dashed field is not shown. ICn: concentration for n% inhibition.

O=C(O)C(Cc1ccccc1)N(Cc1ccc(-c2cccc(C(F)(F)F)c2)s1)C(=O)c1ccc(Cl)cc1I ; protein: RNA-dependent RNA polymerase ; measure: IC50 ; result: <5 µM
CC[C@H](C)[C@H](NC(=O)[C@H](CC(C)C)NC(=O)[C@@H](CCC(=O)O)NC(=O)[C@H](CCC(=O)O)NC(=O)CCC(=O)O)C(=O)N[C@@H](CC1CCCCC1)C(=O)NC1(C(=O)O)CC1 ; protein: HCV NS3 protease ; measure: Ki ; result: 0.091 µM
O=C(CCCCCCCCCCC(=O)Nc1ccc(-c2nc3ccccc3[nH]2)cc1)Nc1ccc(-c2nc3ccccc3[nH]2)cc1 ; protein: Nonstructural protein 3 NTPase/helicase ; measure: IC50 ; result: 0.7 µM
COc1cccc(CN(C(=O)C2CCC2)c2cc(-c3ccccc3)sc2C(=O)O)c1 ; protein: NS3 ATPase ; measure: IC50 ; result: 5–20 µM
C=C[C@@H]1C[C@]1(NC(=O)[C@@H]1C[C@@H](Oc2cc(-c3ccccc3)nc3cc(OC)ccc23)CN1C(=O)[C@@H](NC(=O)C(=O)OC)C(C)(C)C)C(=O)NS(=O)(=O)C1CC1 ; strain or isolate: BMS ; protein: NS3/NS4A protease ; measure: IC50 ; result: <0.05 µM
CC[C@H](C)[C@H](NC(=O)[C@H](CC(C)C)NC(=O)[C@@H](CCC(=O)O)NC(=O)[C@H](CCC(=O)O)NC(=O)CCC(=O)O)C(=O)N[C@@H](CC1CCCCC1)C(=O)NC1(C(=O)c2nn[nH]n2)CC1 ; protein: HCV NS3 protease ; measure: Ki ; result: 1.9 µM
C=C[C@H]1CC1(NC(=O)[C@@H]1C[C@@H](Oc2cc(-c3ccccc3)nc3cc(OC)ccc23)CN1C(=O)[C@@H](NC(=O)OC(C)(C)C)C(C)C)C(=O)O ; strain or isolate: BMS ; protein: NS3/NS4A protease ; measure: IC50 ; result: <0.05 µM
C=C1C[C@]1(NC(=O)[C@@H]1C[C@@H](Oc2cc(-c3ccccc3)nc3cc(OC)ccc23)CN1C(=O)[C@@H](NC(=O)OC(C)(C)C)C(C)(C)C)C(=O)NS(=O)(=O)c1cccc(C(F)(F)F)c1 ; strain or isolate: BMS ; protein: NS3/NS4A protease ; measure: IC50 ; result: <0.05 µM
C=CC1C[C@@]1(NC(=O)[C@@H]1C[C@@H](Oc2cc(-c3ccccc3)nc3cc(OC)ccc23)CN1C(=O)[C@@H](NC(=O)CCOC)C(C)(C)C)C(=O)NS(=O)(=O)C1(Cc2ccccc2)CC1 ; strain or isolate: BMS ; protein: NS3/NS4A protease ; measure: IC50 ; result: 0.05–0.5 µM
C=C[C@@H]1C[C@]1(NC(=O)[C@@H]1C[C@@H](Oc2cc(-c3ccccc3)nc3cc(OC)ccc23)CN1C(=O)[C@@H](NC(=O)OC(C)(C)C)C1CCCC1)C(=O)NS(=O)(=O)C(C)C ; strain or isolate: BMS ; protein: NS3/NS4A protease ; measure: IC50 ; result: <0.05 µM
COc1ccc(N2CCN(C(=O)Nc3cc(-c4ccccc4)sc3C(=O)O)CC2)cc1 ; protein: NS3 ATPase ; measure: IC50 ; result: 5–20 µM
C=C[C@H]1C[C@@]1(NC(=O)[C@@H]1C[C@@H](Oc2cc(-c3ccccc3)nc3cc(OC)ccc23)CN1C(=O)[C@@H](NC(=O)OC(C)(C)C)C(C)(C)C)C(=O)NS(=O)(=O)C1(COC(C)C)CC1 ; strain or isolate: BMS ; protein: NS3/NS4A protease ; measure: IC50 ; result: <0.05 µM
C=C[C@@H]1C[C@]1(NC(=O)[C@@H]1C[C@@H](Oc2cc(-c3ccccc3)nc3cc(OC)ccc23)CN1C(=O)[C@@H](NC(=O)OC(C)(C)C)C(C)(C)C)C(=O)NS(=O)(=O)C(C)C ; strain or isolate: BMS ; protein: NS3/NS4A protease ; measure: IC50 ; result: <0.05 µM
COc1cc(C)c(S(=O)(=O)N(Cc2ccc(C)cc2)[C@@H](Cc2ccccc2)C(=O)O)c(C)c1C ; protein: RNA-dependent RNA polymerase ; measure: IC50 ; result: 5–20 µM
CC[C@@H]1C[C@]1(NC(=O)[C@@H]1C[C@@H](Oc2cc(-c3ccccc3)nc3cc(OC)ccc23)CN1C(=O)[C@H](CC1CCCCC1)NC(=O)OC(C)(C)C)C(=O)NS(=O)(=O)C1CC1 ; strain or isolate: BMS ; protein: NS3/NS4A protease ; measure: IC50 ; result: <0.05 µM
CCC(=O)N(Cc1ccccc1C)c1cc(-c2ccccc2)sc1C(=O)O ; protein: NS3 ATPase ; measure: IC50 ; result: 5–20 µM
C=C[C@@H]1C[C@]1(NC(=O)[C@@H]1C[C@@H](Oc2cc(-c3ccccc3)nc3cc(OC)ccc23)CN1C(=O)[C@@H](NS(C)(=O)=O)C(C)(C)C)C(=O)NS(=O)(=O)C1CC1 ; strain or isolate: BMS ; protein: NS3/NS4A protease ; measure: IC50 ; result: <0.05 µM
Cc1ccc(C(=O)N(c2cc(-c3ccccc3)sc2C(=O)O)C(C)C)c(C)c1 ; protein: NS3 ATPase ; measure: IC50 ; result: <5 µM
C=C[C@@H]1C[C@]1(NC(=O)[C@@H]1C[C@@H](Oc2cc(-c3ccccc3)nc3cc(OC)ccc23)CN1C(=O)[C@@H](NC(=O)OC(C)(C)C)C(C)(C)C)C(=O)NS(=O)(=O)CC(C)(C)C ; strain or isolate: BMS ; protein: NS3/NS4A protease ; measure: IC50 ; result: <0.5 µM
CC[C@H](C)[C@H](NC(=O)[C@H](CC(C)C)NC(=O)[C@@H](CCC(=O)O)NC(=O)[C@H](CCC(=O)O)NC(=O)CCC(=O)O)C(=O)N[C@@H](CC1CCCCC1)C(=O)N[C@@H](Cc1ccccc1)C(=O)O ; protein: HCV NS3 protease ; measure: Ki ; result: 1.5 µM
C=C[C@@H]1C[C@]1(NC(=O)[C@@H]1C[C@@H](Oc2cc(-c3ccccc3)nc3cc(OC)ccc23)CN1C(=O)[C@@H](NC(=O)OC(C)(C)C)C(C)(C)C)C(=O)NS(=O)(=O)CCC ; strain or isolate: BMS ; protein: NS3/NS4A protease ; measure: IC50 ; result: <0.05 µM
O=C(O)[C@H](Cc1ccccc1)N(Cc1cnc(N2CCN(Cc3ccccc3)CC2)s1)C(=O)c1ccc(Cl)cc1Cl ; protein: RNA-dependent RNA polymerase ; measure: IC50 ; result: <5 µM
CC(C)(C)OC(=O)CC[C@@H](CC(=O)C(=O)NCc1ccc(Cl)cc1)NC(=O)C[C@@H](NC(=O)C[C@@H](NC(=O)C[C@@H](NC(=O)CCC(=O)O)C1CCCCC1)C1CCCCC1)C1CCCCC1 ; protein: Nonstructural protein 3/4A ; read by: FRET / fluorescence ; measure: IC50 ; result: 1 µM
CC[C@H](C)[C@H](NC(=O)[C@H](CC(C)C)NC(=O)[C@@H](CCC(=O)O)NC(=O)CCC(=O)O)C(=O)N[C@@H](CC1CCCCC1)C(=O)NC1(C(=O)O)CC1 ; protein: HCV NS3 protease ; measure: Ki ; result: 1.8 µM
CC(C)(C)OC(=O)CCNC(=O)Nc1nc2c(s1)-c1nc(-c3ccccc3Cl)ncc1CC2 ; strain or isolate: Con1 ; protein: PI4KIIIalpha ; read by: PCR ; measure: IC50 ; result: 0.45 µM
O=C(O)[C@H](Cc1ccccc1)N(Cc1cc(-c2ccc(F)c(Cl)c2)cs1)C(=O)c1ccc(Cl)cc1Cl ; protein: RNA-dependent RNA polymerase ; measure: IC50 ; result: <5 µM
CN(C(=O)c1ccc(Cl)c(Cl)c1)c1cc(-c2ccccc2)sc1C(=O)O ; protein: NS3 ATPase ; measure: IC50 ; result: 5–20 µM
CCCC(NC(=O)[C@H](CC1CCCCC1)NC(=O)[C@@H](NC(=O)[C@H](CC(C)C)NC(=O)[C@@H](CCC(=O)O)NC(=O)[C@H](CCC(=O)O)NC(=O)CCC(=O)O)[C@@H](C)CC)C(=O)c1nn[nH]n1 ; protein: HCV NS3 protease ; measure: Ki ; result: 0.3 µM
COc1ccc2c(O[C@@H]3C[C@@H](C(=O)NC4(C(=O)NS(=O)(=O)C5(Cc6ccccc6)CC5)CC4)N(C(=O)[C@@H](NC(=O)OC(C)(C)C)C(C)(C)C)C3)cc(-c3ccccc3)nc2c1 ; strain or isolate: BMS ; protein: NS3/NS4A protease ; measure: IC50 ; result: 0.5–5 µM
O=C(O)[C@H](Cc1ccccc1)N(Cc1cnc(N2CCCCC2)s1)C(=O)c1ccc(Cl)cc1Cl ; protein: RNA-dependent RNA polymerase ; measure: IC50 ; result: <5 µM
CC[C@H](C)[C@H](NC(=O)[C@H](CC(C)C)NC(=O)[C@@H](CCC(=O)O)NC(=O)CCC(=O)O)C(=O)N[C@@H](CC1CCCCC1)C(=O)NC1(C(=O)C(F)(F)C(F)(F)F)CC1 ; protein: HCV NS3 protease ; measure: Ki ; result: 83 µM
O=C(O)C(Cc1ccccc1)N(Cc1cc(-c2cccc(F)c2)cs1)C(=O)c1ccc(Cl)cc1Cl ; protein: RNA-dependent RNA polymerase ; measure: IC50 ; result: <5 µM
C=C[C@@H]1C[C@]1(NC(=O)[C@@H]1C[C@@H](Oc2cc(-c3ccccc3)nc3cc(OC)ccc23)CN1C(=O)[C@@H](NC(=O)N(CCC(F)(F)F)CC1CC1)C(C)(C)C)C(=O)NS(=O)(=O)C1CC1 ; strain or isolate: BMS ; protein: NS3/NS4A protease ; measure: IC50 ; result: <0.05 µM
O=C(O)[C@@H](Cc1ccccc1)N(Cc1ccco1)C(=O)c1ccc(Cl)cc1Cl ; protein: RNA-dependent RNA polymerase ; measure: IC50 ; result: 5–20 µM
CC[C@H](C)[C@H](NC(=O)[C@H](CC(C)C)NC(=O)[C@@H](CCC(=O)O)NC(=O)CCC(=O)O)C(=O)N[C@@H](CC1CCCCC1)C(=O)NC1(C(=O)c2nn[nH]n2)CC1 ; protein: HCV NS3 protease ; measure: Ki ; result: 13 µM

Repeating the first 3 entries:

SMILES | strain or isolate | protein | read by | measure | result
O=C(O)C(Cc1ccccc1)N(Cc1ccc(-c2cccc(C(F)(F)F)c2)s1)C(=O)c1ccc(Cl)cc1I | - | RNA-dependent RNA polymerase | - | IC50 | <5 µM
CC[C@H](C)[C@H](NC(=O)[C@H](CC(C)C)NC(=O)[C@@H](CCC(=O)O)NC(=O)[C@H](CCC(=O)O)NC(=O)CCC(=O)O)C(=O)N[C@@H](CC1CCCCC1)C(=O)NC1(C(=O)O)CC1 | - | HCV NS3 protease | - | Ki | 0.091 µM
O=C(CCCCCCCCCCC(=O)Nc1ccc(-c2nc3ccccc3[nH]2)cc1)Nc1ccc(-c2nc3ccccc3[nH]2)cc1 | - | Nonstructural protein 3 NTPase/helicase | - | IC50 | 0.7 µM